Anti-infective test results gathered from many reports (values: NIAID ChemDB through PubChem).

All rows: tests on isolated targets; agent: Candida albicans

Lines come from different laboratories, so protocols vary. ICn: concentration for n% inhibition. Blank or dashed fields: not listed here.

| SMILES | strain | target | endpoint | value |
|---|---|---|---|---|
| O=C([O-])c1c(F)c(F)cc(F)c1F | Nce103 | Beta-carbonic anhydrase | Ki | 61.6 µM |
| CN(C)C(=O)c1ccc2nc(NC(=O)CC3CCC[C@@H](NCc4ccc5ccccc5c4)C3)sc2c1 | - | N-myristoyltransferase | IC50 | 0.011 µM |
| CCOC(=O)c1oc2cccc(OC[C@H](O)CNC(C)(C)C)c2c1C | CY1002 | N-myristoyltransferase | IC50 | 150 µM |
| CN(C)Cc1ccc(C2CCC(N(C)C(=O)c3ccc(Cl)cc3)CC2)cc1 | - | Oxidosqualene cyclase | IC50 | 0.1 µM |
| O=C(Nc1nc2ccc(NC(=O)[C@@H]3CCC[C@@H](NCc4ccc5ccccc5c4)C3)cc2s1)C1CCCC1 | - | N-myristoyltransferase | IC50 | 0.0012 µM |
| CC(=O)c1ccc(OCC(=O)N[C@@H](Cc2ccccc2)C[C@@H](O)[C@H](Cc2ccccc2)NC(=O)COc2ccc(C(C)=O)cc2)cc1 | H12 | Aspartic protease SAP2 | IC50 | 12 µM |
| O=C(NCCNCc1ccc2ccccc2c1)c1ccc2nc(NC(=O)C3CCCCC3)oc2c1 | - | N-myristoyltransferase | IC50 | 0.29 µM |
| NC(=O)[C@@H](Cc1cnc[nH]1)NC(=O)[C@@H](Cc1cccc2ccccc12)NC(=O)C1Cc2ccccc2C1 | - | Geranylgeranyltransferase | IC50 | >3 µM |
| COC(=O)C(CCSC)NC(=O)C1(Cc2ccccc2C)CCN(C(=O)[C@@H](N)CS)CC1 | - | Farnesyl-protein transferase | IC50 | 0.35 µM |
| CCCCCCCC/C=C/CC/C=C/[C@H]1C[C@H]([C@](O)(CC(=O)O[C@@H](C(=O)O)[C@H](CC(=O)O)C(=O)O)C(=O)O)C(=O)O1 | - | Geranylgeranyltransferase I | IC50 | 5 µM |
| CCC(C)CC(C)CCCCCCCCC(=O)N[C@H]1C[C@@H](O)[C@@H](O)NC(=O)[C@@H]2[C@@H](O)CCN2C(=O)[C@H]([C@H](O)CCNC)NC(=O)[C@H]([C@H](O)Cc2ccc(O)cc2)NC(=O)[C@@H]2C[C@@H](O)CN2C(=O)[C@H]([C@@H](C)O)NC1=O | MY1055 | Glucan synthase | IC50 | 0.007 µM |
| Cc1cccc(C)c1OCC(=O)N[C@@H](Cc1ccccc1)C[C@@H](O)[C@H](Cc1ccccc1)NC(=O)COc1c(C)cccc1C | H12 | Aspartic protease SAP2 | IC50 | >50 µM |
| COc1ccc2nc(NC(=O)C(=O)C(C(=O)c3ccc(-c4ccccc4)cc3)C3OC(=O)c4ccccc43)sc2c1 | - | Geranylgeranyl-protein transferase I | IC50 | 0.07 µM |
| CC(C)=CCc1ccc(O)c2oc3cc(O)cc(O)c3c(=O)c12 | - | Aspartic protease | IC50 | 25 µg/mL |
| O=C(Nc1nc2ccc(NC(=O)[C@@H]3CCC[C@H](NCc4cccc5ccccc45)C3)cc2s1)C1CCCC1 | - | N-myristoyltransferase | IC50 | 0.00049 µM |
| Nc1ncc(CCc2ccccc2)c(N)n1 | - | Dihydrofolate reductase | IC50 | 3.369 µM |
| O=C(COc1ccccc1O)N[C@@H](Cc1ccccc1)C[C@@H](O)[C@H](Cc1ccccc1)NC(=O)COc1ccccc1O | H12 | Aspartic protease SAP2 | IC50 | >50 µM |
| CN(C)C(=O)c1ccc2nc(NC(=O)C3CCC(CN)CC3)sc2c1 | - | N-myristoyltransferase | IC50 | 0.01 µM |
| CC(N)C(=O)N(C)C(C(=O)O)[C@H]1O[C@@H](n2ccc(=O)[nH]c2=O)[C@H](O)[C@@H]1O | - | Chitin synthase | IC50 | >100 µM |
| Cn1c(NC(=O)C2CCCCC2)nc2cc(C(=O)NCCNCc3ccc4ccccc4c3)ccc21 | - | N-myristoyltransferase | IC50 | >10 µM |
| Cc1cccc(C)c1OCC(=O)N[C@@H](Cc1ccccc1)C[C@@H](O)[C@H](Cc1ccccc1)NC(=O)[C@@H](NC(=O)c1cc(=O)c2ccccc2[nH]1)c1cccs1 | H12 | Aspartic protease SAP2 | IC50 | 80 µM |
| CC(=O)[O-].CC(N)C[NH2+]C(C(=O)O)[C@H]1O[C@@H](n2ccc(=O)[nH]c2=O)[C@H](O)[C@@H]1O | - | Chitin synthase | IC50 | >100 µM |
| CC1(c2ccc(OCC#N)c(Cl)c2Cl)C(=O)c2ccccc2C1=O | - | Geranylgeranyl-protein transferase I | IC50 | 0.13 µM |
| Cc1cc2c3c(N)nc(N)nc3ccc2n1C | - | Dihydrofolate reductase | Ki | 0.000087 µM |
| COc1ccc(C2CC(c3cc4ccccc4o3)=NN2c2ccc([N+](=O)[O-])cc2)cc1 | - | Geranylgeranyl-protein transferase I | IC50 | 0.06 µM |
| CN(C)C(=O)c1ccc2nc(NC(=O)[C@@H]3CCC[C@H](NCc4ccc5ccccc5c4)C3)sc2c1 | - | N-myristoyltransferase | IC50 | 0.086 µM |
| Nc1ncc(OCCc2c(Cl)cccc2Cl)c(N)n1 | - | Dihydrofolate reductase | IC50 | 3.102 µM |
| CC(C)=CCC/C(C)=C/Cc1c(O)cc(O)c(C(=O)c2ccccc2)c1O | - | Aspartic protease | IC50 | 40 µg/mL |
| CCOC(=O)c1oc2cccc(OCCCNCCc3cccnc3)c2c1C | CY1002 | N-myristoyltransferase | IC50 | 0.39 µM |
| O=C(COc1ccccc1)N[C@@H](Cc1ccccc1)C[C@H](O)[C@H](Cc1ccccc1)NC(=O)COc1ccccc1 | H12 | Aspartic protease SAP2 | IC50 | 4 µM |
| CCC(C)CC(C)CCCCCCCCC(=O)N[C@H]1C[C@@H](O)[C@@H](O)NC(=O)[C@@H]2[C@@H](O)CCN2C(=O)[C@H]([C@H](O)CCN(C)C)NC(=O)[C@H]([C@H](O)Cc2ccc(O)cc2)NC(=O)[C@@H]2C[C@@H](O)CN2C(=O)[C@H]([C@@H](C)O)NC1=O | MY1055 | Glucan synthase | IC50 | 0.005 µM |
| O=C(Nc1nc2ccc(NC(=O)[C@H]3CCC[C@H](NCc4ccc5ccccc5c4)C3)cc2s1)C1CCCC1 | - | N-myristoyltransferase | IC50 | 0.034 µM |
| Nc1ncc(OCCc2ccc(Cl)c(Cl)c2)c(N)n1 | - | Dihydrofolate reductase | IC50 | 3.719 µM |
| CCC(C)CC(C)CCCCCCCCC(=O)N[C@H]1C[C@@H](O)[C@@H](O)NC(=O)[C@@H]2[C@@H](O)CCN2C(=O)[C@H]([C@H](O)CCN)NC(=O)[C@H]([C@H](O)Cc2ccc(O)cc2)NC(=O)[C@@H]2C[C@@H](O)CN2C(=O)[C@H]([C@@H](C)O)NC1=O | MY1055 | Glucan synthase | IC50 | 0.01 µM |

Again, the opening 2 rows:

SMILES,strain,target,endpoint,value
O=C([O-])c1c(F)c(F)cc(F)c1F,Nce103,Beta-carbonic anhydrase,Ki,61.6 µM
CN(C)C(=O)c1ccc2nc(NC(=O)CC3CCC[C@@H](NCc4ccc5ccccc5c4)C3)sc2c1,-,N-myristoyltransferase,IC50,0.011 µM